Measured values from several laboratories, pooled; numbers as filed in NIAID ChemDB.

Common to all: toxicity to cultured cells; cell line: CEM; read-out: CC50

An empty or dashed field is not shown. CCn: concentration that lowers growth or viability of the cells by n%. Rows are shuffled and stem from different studies.

| structure | method | result |
|---|---|---|
| O=C(O)C(SC1=NNC2(C(=O)N1)c1ccccc1-c1ccccc12)SC1=NNC2(C(=O)N1)c1ccccc1-c1ccccc12 | - | 15 µM |
| C/C=C/COc1cc(NC(=S)c2ccoc2C)ccc1Cl | - | 9 µg/mL |
| O=C(O)C[C@H](CC1CC1)NC(=O)c1ccccc1SSc1ccccc1C(=O)N[C@H](CC(=O)O)CC1CC1 | - | >100 µM |
| COc1ccccc1C(=S)Nc1ccc(Cl)c(C(=O)OC2CCCC2)c1 | - | 10 µg/mL |
| CCC[n+]1ccc2cc(OC)c(OC)c3c2c1C=CN3 | - | 23.8 µM |
| CCc1c(Oc2cc(C)cc(C)c2)n(CCC2=CCCC2)c(=O)[nH]c1=O | - | >1120 µM |
| CC(=O)ONc1ccc(S(=O)(=O)N(CC(C)C)C[C@@H](O)[C@H](Cc2ccccc2)NC(=O)[C@H](CC(C)C)N2C(=O)c3ccccc3C2=O)cc1 | MTT | >100 µM |
| CCC(=O)c1ccc2c(c1)sc(=O)n2CCN1CCCCC1 | - | 52 µg/mL |
| COc1ccc(OC)c(NC(=O)c2ccccc2SSc2ccccc2C(=O)Nc2cc(OC)ccc2OC)c1 | - | 53 µM |
| CCc1c(Oc2cc(C)cc(C)c2)n(CC2CC2)c(=O)[nH]c1=O | - | >1270 µM |
| Cc1sccc1C(=O)Nc1ccc(Cl)c(/C=N/OC(C)(C)C)c1 | - | 14 µg/mL |
| C=CCOC(=O)[C@H](CC(C)C)NC(=O)c1ccccc1SSc1ccccc1C(=O)N[C@@H](CC(C)C)C(=O)OCC=C | - | >100 µM |
| C=C(C)[C@@H]1CC[C@]2(C(=O)NCCC(=O)O)CC[C@]3(C)[C@H](CC[C@@H]4[C@@]5(C)CC[C@H](O)C(C)(C)[C@@H]5CC[C@]43C)[C@@H]12 | - | >3 µM |
| CN[C@H]1C(=O)N[C@@H]2Cc3ccc(cc3)Oc3cc4cc(c3O)Oc3ccc(cc3Cl)[C@@H](O)[C@@H]3NC(=O)[C@H](NC(=O)[C@@H]4NC(=O)[C@@H](NC2=O)c2cc(cc(O)c2Cl)Oc2cc1ccc2O)c1ccc(O)c(c1)-c1c(O)cc(O)cc1[C@@H](C(=O)O)NC3=O | cell count | >500 µM |
| CCC(CC)OC(=O)c1cc(NC(=O)c2ccccc2N)ccc1Cl | - | 25 µg/mL |
| O=C(c1ccccc1SSc1ccccc1C(=O)N1CCCCC1)N1CCCCC1 | - | 27 µM |
| O=C(Nc1ccc(Cl)c(C(=O)OC2CCCCC2)c1)c1ccccc1F | - | 33 µg/mL |
| CCCCC(=O)c1ccc2c(c1)sc(=O)n2Cc1ccccc1 | - | 3.6 µg/mL |
| Cc1cc(C)cc(C(=O)c2c(C(C)C)c(=O)[nH]c(=O)n2CCC2=CCCC2)c1 | - | 39.5 µM |
| Nc1nc2c(ncn2[C@@H]2C=C(F)[C@H](CO)O2)c(=O)[nH]1 | - | >100 µM |
| CCCCc1ccc(CN2CCN(Cc3c(O)cc4c(c3O)-c3cc(ccc3O)[C@H]3NC(=O)[C@@H]5NC(=O)[C@H]6NC(=O)[C@@H](Cc7ccc(cc7)Oc7cc5cc(c7O[C@@H]5O[C@H](C(=O)O)[C@@H](O)[C@H](O)[C@H]5N)Oc5ccc(cc5Cl)[C@@H](O)[C@H](NC3=O)C(=O)N[C@@H]4C(=O)O)NC(=O)[C@H](NC)c3ccc(O)c(c3)Oc3cc(O)c(Cl)c6c3)CC2)cc1 | cell count | 106 µM |
| COc1cc2ccnc3c2c(c1OS(C)(=O)=O)N(C)C=C3 | - | 7.3 µM |
| CC(C)C(OC(=O)c1cc(NC(=S)c2ccc[nH]2)ccc1Cl)C(C)C | - | >100 µg/mL |
| Cc1cc(C)cc(C(=O)c2c(C(C)C)c(=O)[nH]c(=O)n2CC2CC2)c1 | - | >1170 µM |
| CCCC[C@H](NC(=O)c1ccccc1SSc1ccccc1C(=O)N[C@@H](CCCC)C(=O)O)C(=O)O | - | 51 µM |
| CCCCCCCCCCCCNC(=O)c1ccccc1SSc1ccccc1C(=O)NCCCCCCCCCCCC | - | 20 µM |
| O=C1NC(=S)NNC12c1ccccc1-c1ccccc12 | - | 44 µM |
| Cc1cc(C)cc(Oc2c(C(C)C)c(=O)[nH]c(=O)n2CCC2CCCC2)c1 | - | 17.6 µM |
| C/C=C/COc1cc(NC(=S)c2ccsc2C)ccc1Cl | - | 5.9 µg/mL |
| CC[C@@H](C)[C@@H](NC(=O)c1ccccc1SSc1ccccc1C(=O)N[C@@H](C(=O)O)[C@H](C)CC)C(=O)O | - | 113 µM |
| N[C@H](C(=O)O)c1cc(O)cc(O)c1-c1cc([C@H]2NC(=O)[C@@H]3NC(=O)[C@H]4NC(=O)[C@@H](Cc5ccc(c(Cl)c5)Oc5cc3cc(c5O)Oc3ccc(cc3Cl)[C@@H](O)[C@@H](C(=O)O)NC2=O)NC(=O)[C@H](N)c2ccc(O)c(c2)Oc2cc(O)cc4c2)ccc1O | cell count | >250 µM |
| CCCS(=O)(=O)Oc1c(OC)cc2ccnc3c2c1N(C)C=C3 | - | 6 µM |
| C=C(C)[C@@H]1CC[C@]2(C(=O)NCCCCCC(=O)O)CC[C@]3(C)[C@H](CC[C@@H]4[C@@]5(C)CC[C@H](O)C(C)(C)[C@@H]5CC[C@]43C)[C@@H]12 | - | >3 µM |
| Nc1ccn([C@H]2C=C(F)[C@@H](CO)O2)c(=O)n1 | - | >100 µM |
| CC(C)CN(C[C@@H](O)[C@H](Cc1ccccc1)NC(=O)CCCc1c[nH]c2ccccc12)S(=O)(=O)c1ccc(Br)cc1 | MTT | 34.8 µM |
| Cc1sccc1C(=S)Nc1ccc(Cl)c(C(=O)OC2CCCCC2)c1 | - | 6 µg/mL |
| O=C(NCc1ccccc1)c1ccccc1SSc1ccccc1C(=O)NCc1ccccc1 | - | 10 µM |
| CC(=O)ONc1ccc(S(=O)(=O)N(CC(C)C)C[C@@H](O)[C@H](Cc2ccccc2)NC(=O)CCN2C(=O)c3ccccc3C2=O)cc1 | MTT | >100 µM |
| Cc1ccsc1C(=S)Nc1ccc(Cl)c(C(=O)OC(C(C)C)C(C)C)c1 | - | ≥100 µg/mL |
| COC(=O)[C@H]1NC(=O)[C@H]2NC(=O)[C@H](NC(=O)[C@H](NC(=O)OC(C)(C)C)c3cc(Oc4ccc(C[C@@H](NC(=O)OCc5ccccc5)C(=O)O)cc4Cl)c(O)c(c3)Oc3ccc(cc3Cl)[C@H]2O)c2ccc(O)c(c2)-c2c(O)cc(O)cc21 | cell count | >250 µM |
| Cc1cc(C)cc(Oc2c(C(C)C)c(=O)[nH]c(=O)n2CC2=CCCC2)c1 | - | 24.6 µM |
| Cn1ccc(C(=S)Nc2ccc(Cl)c(/C=N/OC(C)(C)C)c2)c1 | - | 13 µg/mL |
| O=c1ccn([C@H]2C=C(F)[C@@H](CO)O2)c(=O)[nH]1 | - | >100 µM |
| Cn1c(=O)sc2cc(C(=O)c3ccccc3)ccc21 | - | 4.9 µg/mL |
| O=C(OC1CCCCC1)c1cc(NC(=S)c2ccsc2)ccc1Cl | - | 4.1 µg/mL |
| CCCCCCCCCCCCN1C=Cc2cc(OC)c(OC)c3c2c1cc[n+]3CCCCCCCCCCCC | - | <1 µM |
| CC(C)C[C@@H](CO)NC(=O)c1ccccc1SSc1ccccc1C(=O)N[C@H](CO)CC(C)C | - | 12 µM |
| O=C(O)CSC1=NNC2(C(=O)N1)c1ccccc1-c1ccccc12 | - | 55 µM |
| COc1ccccc1C(=S)Nc1ccc(Cl)c(C(=O)OC(C)C)c1 | - | 27 µg/mL |
| Cc1cc(C)cc(C(=O)c2c(C(C)C)c(=O)[nH]c(=O)n2CCC2C=CCC2)c1 | - | 22.9 µM |
| Cc1cn([C@@H]2C=C(F)[C@H](CO)O2)c(=O)[nH]c1=O | - | >100 µM |
| Cc1occc1C(=S)Nc1ccc(Cl)c(/C=N/OC(C)C)c1 | - | 3.3 µg/mL |
| O=c1[nH]cnc2c1ncn2[C@@H]1C=C(F)[C@H](CO)O1 | - | >100 µM |
| CCc1c(Oc2cc(C)cc(C)c2)n(CCC2CCCC2)c(=O)[nH]c1=O | - | 84.8 µM |
| Nc1ccc(NC(=O)c2ccccc2SSc2ccccc2C(=O)Nc2ccc(N)cc2)cc1 | - | 8 µM |
| CCN1C=Cc2nccc3cc(OC)c(OC)c1c23 | - | 69 µM |
| O=C(NC1(C(=O)O)CCCC1)c1ccccc1SSc1ccccc1C(=O)NC1(C(=O)O)CCCC1 | - | 16 µM |
| CC1=C(C(=O)Nc2ccc(Cl)c(/C=N/OC(C)(C)C)c2)SCCO1 | - | 8.5 µg/mL |
| CN(C)c1cccc(C(=O)c2ccc3c(c2)sc(=O)n3C)c1 | - | >40 µg/mL |
| O=C(Nc1ccc(O)cc1)c1ccccc1SSc1ccccc1C(=O)Nc1ccc(O)cc1 | - | 33 µM |
| CC(=O)ONc1ccc(S(=O)(=O)N(CC(C)C)C[C@@H](O)[C@H](Cc2ccccc2)NC(=O)CCn2c(=O)oc3ccccc32)cc1 | MTT | >100 µM |
| C=C(C)[C@@H]1CC[C@]2(C(=O)NCCC(=O)NCCCCCCC(=O)O)CC[C@]3(C)[C@H](CC[C@@H]4[C@@]5(C)CC[C@H](O)C(C)(C)[C@@H]5CC[C@]43C)[C@@H]12 | - | >3 µM |
| O=C(O)CNC(=O)c1ccccc1SSc1ccccc1C(=O)NCC(=O)O | - | >200 µM |
| CC(C)C[C@@H](C(=O)O)N(C)C(=O)c1ccccc1SSc1ccccc1C(=O)N(C)[C@@H](CC(C)C)C(=O)O | - | >100 µM |
| COc1ccccc1C(=O)Nc1ccc(Cl)c(C(=O)OC2CCCC2)c1 | - | >100 µg/mL |
| O=C1N=C2SC=C(NC(=S)Nc3ccccc3)N2NC12c1ccccc1-c1ccccc12 | - | 82 µM |
| C/C=C/COc1cc(NC(=S)c2ccn(C)c2C)ccc1Cl | - | 5.2 µg/mL |
| C=C(C)[C@@H]1CC[C@]2(C(=O)NCCCCCC(=O)NCCCC(=O)O)CC[C@]3(C)[C@H](CC[C@@H]4[C@@]5(C)CC[C@H](O)C(C)(C)[C@@H]5CC[C@]43C)[C@@H]12 | - | >3 µM |
| CCC1=C(C(=O)Nc2ccc(Cl)c(/C=N/OC(C)(C)C)c2)SCCO1 | - | 11.4 µg/mL |
| CC(=O)ONc1ccc(S(=O)(=O)N(CC(C)C)C[C@@H](O)[C@H](Cc2ccccc2)NC(=O)CCc2c[nH]c3ccccc23)cc1 | MTT | >100 µM |
| C/C=C/COc1cc(NC(=O)c2ccsc2C)ccc1Cl | - | 87 µg/mL |
| COC(=O)c1ccccc1SSc1ccccc1C(=O)OC | - | 9.3 µM |
| C=CCOc1cc(NC(=S)c2ccoc2C)ccc1OC | - | >100 µg/mL |
| CC(=O)ONc1ccc(S(=O)(=O)N(CC(C)C)C[C@@H](O)[C@H](Cc2ccccc2)NC(=O)CCCN2C(=O)c3ccccc3C2=O)cc1 | MTT | >100 µM |

A second listing of 5 rows from above:

Nc1nc2c(ncn2[C@@H]2C=C(F)[C@H](CO)O2)c(=O)[nH]1 ; result: >100 µM
C=CCOC(=O)[C@H](CC(C)C)NC(=O)c1ccccc1SSc1ccccc1C(=O)N[C@@H](CC(C)C)C(=O)OCC=C ; result: >100 µM
CCc1c(Oc2cc(C)cc(C)c2)n(CC2CC2)c(=O)[nH]c1=O ; result: >1270 µM
Cn1ccc(C(=S)Nc2ccc(Cl)c(/C=N/OC(C)(C)C)c2)c1 ; result: 13 µg/mL
Nc1ccc(NC(=O)c2ccccc2SSc2ccccc2C(=O)Nc2ccc(N)cc2)cc1 ; result: 8 µM